Results of unrelated studies side by side (data: NIAID ChemDB).

Common to all: tests in culture; species: Candida albicans; read-out: MIC

Two numbers with a dash give a range or band. Conditions beyond the fields shown may differ between rows.

{"smiles": "CCN1C2=NC[C@@H](C3CCCCC3)N2C[C@@H]1Cc1ccccc1", "strain or isolate": "ATCC 10231", "value": ">64 µg/mL"}
{"smiles": "NC(=O)c1ncn([C@@H]2O[C@H](CO)[C@@H](O)[C@H]2O)c1Br", "value": "0.15 µM"}
{"smiles": "O=c1c(-c2ccc(O)cc2)coc2cc(OCCCBr)cc(O)c12", "read by": "MTT", "value": ">50 µg/mL"}
{"smiles": "C=CCc1ccc(O)c(-c2ccc(O)c(CC=C)c2)c1", "strain or isolate": "YL 336", "read by": "broth dilution", "value": "128 µg/mL"}
{"smiles": "CCCCNC(=O)c1cc(F)ccc1SSc1ccc(F)cc1C(=O)NCCCC", "strain or isolate": "ATCC 2091", "value": "20 µg/mL"}
{"smiles": "C1CCC([C@H]2CN3C(=NC[C@@H]3C3CCCCC3)N2CCC23CC4CC(CC(C4)C2)C3)CC1", "strain or isolate": "ATCC 10231", "value": "20–32 µg/mL"}
{"smiles": "O=c1c(-c2ccc(O)cc2)coc2cc(OCCCCN3CCNCC3)cc(O)c12", "read by": "MTT", "value": ">50 µg/mL"}
{"smiles": "O=c1c2ccccc2[se]n1-c1cc([N+](=O)[O-])ccn1", "value": ">500 µg/mL"}
{"smiles": "Cc1c(N2CCC(C(C)(C)N)C2)c(F)cn2c(=O)c(C(=O)O)cc(C3CC3)c12", "strain or isolate": "CCH442", "value": ">100 µg/mL"}
{"smiles": "C1CCC([C@H]2CN3C(=NC[C@H]3C3CCCCC3)N2CCC23CC4CC(CC(C4)C2)C3)CC1", "strain or isolate": "ATCC 10231", "value": "10–16 µg/mL"}
{"smiles": "O=c1c(-c2ccc(O)cc2)coc2cc(O)cc(O)c12", "read by": "MTT", "value": ">50 µg/mL"}
{"smiles": "CCC[CH2][Sn]([CH2]CCC)([S]C(=S)N1CCCC1)[S]C(=S)N1CCCC1", "strain or isolate": "ATCC 18804", "value": "30 µg/mL"}
{"smiles": "NCCCC(N)CC(=O)NC1C(NC2=N[C@@H]3C(=O)NC[C@@H](O)[C@H]3N2)OC(CO)C(OC(N)=O)C1O", "strain or isolate": "SC5314", "read by": "resazurin", "value": "2.5 µg/mL"}
{"smiles": "CCCN(CCC)CCCCOc1cc(O)c2c(=O)c(-c3ccc(O)cc3)coc2c1", "read by": "MTT", "value": ">50 µg/mL"}
{"smiles": "S=C([S][Sn]([CH]1CCCCC1)([CH]1CCCCC1)[CH]1CCCCC1)N1CCCC1", "strain or isolate": "Drug-resistant isolate", "value": "75 µg/mL"}
{"smiles": "Cc1c(N2CCC(C3(N)CC3)C2)c(F)cn2c(=O)c(C(=O)O)cc(C3CC3)c12.Cl", "strain or isolate": "CCH442", "value": "50 µg/mL"}
{"smiles": "CN[C@@H]1[C@H](O[C@@H]2OC[C@@H](O)[C@H](O)[C@H]2O)[C@@H](O)[C@H](O[C@H]2c3cc(C)c(C(=O)NCCN)c(O)c3-c3c(cc4c(c3O)C(=O)c3cc(OC)cc(O)c3C4=O)[C@@H]2O)O[C@@H]1C", "strain or isolate": "A9540", "value": ">100 µg/mL"}
{"smiles": "O=C(O)C(Cc1cnc[nH]1)[NH][Sn]([c]1ccccc1)([c]1ccccc1)[c]1ccccc1", "value": "<12.5 µg/mL"}
{"smiles": "Cn1[se]c2ncccc2c1=O", "value": "64 µg/mL"}
{"smiles": "NC(=O)c1ccc(F)cc1SSc1cc(F)ccc1C(N)=O", "strain or isolate": "ATCC 2091", "value": "7.5 µg/mL"}
{"smiles": "O=c1[nH][se]c2ncccc12", "value": "128 µg/mL"}
{"smiles": "C=C1C(=O)O[C@@H]2O[C@]3(C)CC[C@H]4[C@H](C)CC[C@@H]1C24OO3", "strain or isolate": "ATCC 90028", "value": ">50 µg/mL"}
{"smiles": "C1CCC(C[C@@H]2CN=C3N2C[C@@H](C2CCCCC2)N3CCC23CC4CC(CC(C4)C2)C3)CC1", "strain or isolate": "ATCC 10231", "value": "10–16 µg/mL"}
{"smiles": "Cc1cc2c(c(=O)o1)C(c1cc3ccccc3nc1Sc1ccc(Cl)cc1)C(C#N)=C(N)O2", "strain or isolate": "MTCC 227", "read by": "broth dilution", "value": "1000 µg/mL"}
{"smiles": "Cc1c(N2CC(N)C2)c(F)cn2c(=O)c(C(=O)O)cc(C3CC3)c12.Cl", "strain or isolate": "CCH442", "value": ">100 µg/mL"}
{"smiles": "NC(=O)c1cc(F)ccc1SSc1ccc(F)cc1C(N)=O", "strain or isolate": "ATCC 2091", "value": "30 µg/mL"}
{"smiles": "Cc1cccnc1-n1[se]c2ccccc2c1=O", "value": ">500 µg/mL"}
{"smiles": "O=c1c(-c2ccc(O)cc2)coc2cc(OCCCn3ccnc3)cc(O)c12", "read by": "MTT", "value": ">50 µg/mL"}
{"smiles": "C=C(Cl)/C=C/[C@H](O)CC(=C)C[C@H]1OC2[C@@H](O)[C@]3(O)C[C@@H](O)[C@H](C)[C@H](CCC/C=C\\[C@@H]4C[C@@H](O)C[C@]5(C[C@H](OC)CC(CC(=O)[C@@H](C)[C@H](OC(C)=O)[C@@H](C)C(=C)C[C@@H]6C[C@@](C)(O)C[C@]7(C[C@H](OC(C)=O)CC(CC(=O)O[C@@H]([C@@H]1O)[C@H]2C)O7)O6)O5)O4)O3", "strain or isolate": "ATCC64124", "value": "6.25 µg/mL"}
{"smiles": "COc1cc(OC)cc(N2C3CCC2CC(c2cnc(N)nc2N)C3)c1", "strain or isolate": "YEM 12 (WT)", "value": "16 µg/mL"}
{"smiles": "CCN(CC)C(=S)[S][Sn]([S]C(=S)N(CC)CC)([S]C(=S)N(CC)CC)[c]1ccccc1", "strain or isolate": "ATCC 18804", "value": ">250 µg/mL"}
{"smiles": "CCCCn1sc2c(C(F)(F)F)cccc2c1=O", "strain or isolate": "ATCC 2091", "value": "40 µg/mL"}
{"smiles": "Cn1[se]c2c(ccc[n+]2C)c1=O", "value": ">500 µg/mL"}
{"smiles": "CCC[CH2][Sn](=[O])[CH2]CCC", "value": "1 µg/mL"}
{"smiles": "Cc1ccc(Sc2nc3ccc(C)cc3cc2C2C(C#N)=C(N)Oc3c2c(=O)oc2ccccc32)cc1", "strain or isolate": "MTCC 227", "read by": "broth dilution", "value": "500 µg/mL"}
{"smiles": "CN[C@@H]1[C@H](O[C@@H]2OC[C@@H](O)[C@H](O)[C@H]2O)[C@@H](O)[C@H](O[C@H]2c3cc(C)c(C(=O)N(C)CC(=O)O)c(O)c3-c3c(cc4c(c3O)C(=O)c3cc(OC)cc(O)c3C4=O)[C@@H]2O)O[C@@H]1C", "strain or isolate": "A9540", "value": ">100 µg/mL"}
{"smiles": "CCCCNC(=O)c1cccc(F)c1SSc1c(F)cccc1C(=O)NCCCC", "strain or isolate": "ATCC 2091", "value": "20 µg/mL"}
{"smiles": "COc1cc(O)c2c(c1)C(=O)c1c(cc3c(c1O)-c1c(cc(C)c(C(=O)N[C@H](CO)C(=O)O)c1O)[C@H](O[C@@H]1O[C@H](C)[C@H](O)[C@H](O)[C@H]1O)[C@H]3O)C2=O", "strain or isolate": "ATCC 38247", "value": "3.1 µg/mL"}
{"smiles": "CCO[C@@H]1O[C@@H]2O[C@]3(C)CC[C@H]4[C@H](C)CC[C@@H]([C@H]1C)C24OO3", "strain or isolate": "ATCC 90028", "value": ">50 µg/mL"}
{"smiles": "O=c1[nH]sc2cccc(C(F)(F)F)c12", "strain or isolate": "ATCC 2091", "value": "30 µg/mL"}
{"smiles": "CN1CCN(CCCCOc2cc(O)c3c(=O)c(-c4ccc(O)cc4)coc3c2)CC1", "read by": "MTT", "value": ">50 µg/mL"}
{"smiles": "CCN(CC)C(=S)[S][Sn]([c]1ccccc1)([c]1ccccc1)[c]1ccccc1", "strain or isolate": "ATCC 18804", "value": "2.5 µg/mL"}
{"smiles": "CN[C@@H]1[C@H](O[C@@H]2OC[C@@H](O)[C@H](O)[C@H]2O)[C@@H](O)[C@H](O[C@H]2c3cc(C)c(C(N)=O)c(O)c3-c3c(cc4c(c3O)C(=O)c3cc(OC)cc(O)c3C4=O)[C@@H]2O)O[C@@H]1C", "strain or isolate": "A9540", "value": ">100 µg/mL"}
{"smiles": "CO[C@H]1O[C@@H]2O[C@@]3(C)CC[C@H]4[C@H](C)CC[C@@H]([C@H]1C)[C@@]24OO3", "strain or isolate": "ATCC 90028", "value": ">50 µg/mL"}
{"smiles": "CN[C@@H]1[C@H](O[C@@H]2OC[C@@H](O)[C@H](O)[C@H]2O)[C@@H](O)[C@H](O[C@H]2c3cc(C)c(C(=O)N[C@@H](CC(=O)O)C(=O)O)c(O)c3-c3c(cc4c(c3O)C(=O)c3cc(OC)cc(O)c3C4=O)[C@@H]2O)O[C@@H]1C", "strain or isolate": "A9540", "value": ">100 µg/mL"}
{"smiles": "C[n+]1cccc2c(=O)n(-c3ccccn3)[se]c21", "value": ">500 µg/mL"}
{"smiles": "CCN1C2=NCC(C)(C)N2C[C@@H]1Cc1ccccc1", "strain or isolate": "ATCC 10231", "value": ">250 µg/mL"}
{"smiles": "Cc1ccc(Sc2nc3ccccc3cc2C2C(C#N)=C(N)Oc3c2c(=O)oc2ccc(C)cc32)cc1", "strain or isolate": "MTCC 227", "read by": "broth dilution", "value": "1000 µg/mL"}
{"smiles": "C[C@@H](c1nc(-c2ccc(C#N)cc2)cs1)[C@](O)(Cn1cnnc1)c1ccc(F)cc1F", "strain or isolate": "AD", "value": "0.25 µg/mL"}
{"smiles": "O=c1c(-c2ccc(O)cc2)coc2cc(OCCCCN3CCCCC3)cc(O)c12", "read by": "MTT", "value": ">50 µg/mL"}
{"smiles": "COc1cc(Cc2cnc(N)nc2N)cc(OC)c1OCCCNc1ccc(S(=O)(=O)c2ccc(N)cc2)cc1", "strain or isolate": "YEM27 (quadruple deletion)", "value": ">64 µg/mL"}
{"smiles": "C1CCC(C[C@@H]2CN3C(=NC[C@H]3C3CCCCC3)N2CCC23CC4CC(CC(C4)C2)C3)CC1", "strain or isolate": "ATCC 10231", "value": "32–64 µg/mL"}
{"smiles": "C/C=C/c1ccc2oc(-c3ccc(O)c(OC)c3)c(C)c2c1", "value": "<256 µg/mL"}
{"smiles": "COc1ccc2nc(Sc3ccc(Cl)cc3)c(C3C(C#N)=C(N)Oc4cc(C)oc(=O)c43)cc2c1", "strain or isolate": "MTCC 227", "read by": "broth dilution", "value": "250 µg/mL"}
{"smiles": "O=c1c2ccccc2[se]n1-c1cc(Cl)ccn1", "value": ">500 µg/mL"}
{"smiles": "CC(C)C[C@@H]1CN2C(=NC[C@@H]2C2CCCCC2)N1CCC12CC3CC(CC(C3)C1)C2", "strain or isolate": "ATCC 10231", "value": ">64 µg/mL"}
{"smiles": "CCCCNC(=O)c1c(F)cccc1SSc1cccc(F)c1C(=O)NCCCC", "strain or isolate": "ATCC 2091", "value": "5 µg/mL"}
{"smiles": "Cc1ccc2oc(=O)c3c(c2c1)OC(N)=C(C#N)C3c1cc2ccccc2nc1Sc1ccccc1", "strain or isolate": "MTCC 227", "read by": "broth dilution", "value": "1000 µg/mL"}
{"smiles": "CCC(C)CC(C)CCCCCCCCC(=O)N[C@H]1C[C@@H](O)[C@H](NCCN)NC(=O)[C@@H]2[C@@H](O)CCN2C(=O)[C@H]([C@H](O)CCN)NC(=O)[C@H]([C@H](O)[C@@H](O)c2ccc(O)cc2)NC(=O)[C@@H]2C[C@@H](O)CN2C(=O)[C@H]([C@@H](C)O)NC1=O", "strain or isolate": "SC5314", "read by": "resazurin", "value": "0.5 µg/mL"}
{"smiles": "O=c1[nH]sc2c(F)cccc12", "strain or isolate": "ATCC 2091", "value": "20 µg/mL"}
{"smiles": "Cc1ccc2nc(Sc3ccc(Cl)cc3)c(C3C(C#N)=C(N)Oc4c3c(=O)oc3ccc(C)cc43)cc2c1", "strain or isolate": "MTCC 227", "read by": "broth dilution", "value": "500 µg/mL"}
{"smiles": "NC1CCN(c2c(F)cn3c(=O)c(C(=O)O)cc(C4CC4)c3c2Cl)C1.O=C(O)C(F)(F)F", "strain or isolate": "CCH442", "value": ">100 µg/mL"}
{"smiles": "S=C([S][Sn]([c]1ccccc1)([c]1ccccc1)[c]1ccccc1)N1CCCC1", "strain or isolate": "ATCC 18804", "value": "5 µg/mL"}
{"smiles": "C[C@@H]1[C@H](O)[C@@H](C)/C=C/C=C/C=C/C=C/C=C/C=C/C=C/[C@H](OC2O[C@@H](C)[C@H](O)[C@@H](N)[C@H]2O)C[C@@H]2OC(O)(C[C@@H](O)C[C@@H](O)[C@H](O)CC[C@@H](O)C[C@@H](O)CC(=O)C[C@H]1C)C[C@H](O)[C@H]2C(=O)O", "strain or isolate": "MTCC 3958", "value": "300 µg/mL"}
{"smiles": "CCC[CH2][Sn]([CH2]CCC)([NH]C(Cc1c[nH]c2ccccc12)C(=O)O)[O]C(=O)C(N)Cc1c[nH]c2ccccc12", "value": "12.5 µg/mL"}
{"smiles": "CCN1C2=NC[C@H](Cc3ccccc3)N2C[C@H]1CCCN=C(N)N", "strain or isolate": "ATCC 10231", "value": ">250 µg/mL"}
{"smiles": "C=C1[C@@H](OCCO)O[C@@H]2O[C@]3(C)CC[C@H]4[C@H](C)CC[C@@H]1C24OO3", "strain or isolate": "ATCC 90028", "value": ">50 µg/mL"}
{"smiles": "COc1ccc2nc(Sc3ccccc3)c(C3C(C#N)=C(N)Oc4c3c(=O)oc3ccc(C)cc43)cc2c1", "strain or isolate": "MTCC 227", "read by": "broth dilution", "value": "1000 µg/mL"}